Measured values: patent US20230218652A1, “ANTIFUNGAL PRODRUGS” (CENTRE NATIONAL DE LA RECHERCHE SCIENTIFIQUE, priority 2020, published 2023)

System: β-N-acetylhexosaminidase from Canavalia ensiformis E.C. 3.2.1.52
Test: Enzymatic release of AmB from the prodrug
Type: biochemical
Conditions: 150 μM, 0.07 U enzyme, 37° C., pH 7.4, 0.1 M PBS, 3% DMSO

CC(=O)N[C@H]1[C@H](Oc2ccc(COC(=O)N[C@@H]3[C@H](O)[C@H](O[C@H]4/C=C/C=C/C=C/C=C/C=C/C=C/C=C/[C@H](C)[C@@H](O)[C@@H](C)[C@H](C)OC(=O)C[C@H](O)C[C@H](O)CC[C@@H](O)[C@H](O)C[C@H](O)C[C@]5(O)C[C@H](O)[C@@H](C(=O)O)[C@H](C4)O5)O[C@H](C)[C@H]3O)cc2[N+](=O)[O-])O[C@H](CO)[C@@H](O)[C@@H]1O [Compound 1]
release of AmB from the prodrug by β-N-acetylhexosaminidase (in words) (listed as prodrug): quickly released | release of AmB from the prodrug by β-N-acetylhexosaminidase (in words) (listed as prodrug 1): confirmed
